Assay results published in paper PMC3723252, “Trypanocidal Activity of Thioamide-Substituted Imidazoquinolinone: Electrochemical Properties and Biological Effects” (Evidence-based Complementary and Alternative Medicine : eCAM, 2013).

System: bloodstream trypomastigotes
Test: Trypanocidal effect on bloodstream trypomastigotes (24 h, mouse blood)
Type: cell-based, Trypanosoma cruzi
Conditions: for Trypomastigotes SI: CC50 Vero cells / IC50 trypomastigotes
Description: Trypanosoma cruzi epimastigotes (Tulahuen strain) were grown as previously described. Bloodstream trypomastigotes were obtained from infected CF1 mice by cardiac puncture. Tulahuen strain expressing the β-galactosidase gene was kindly provided by Dr Buckner (University of Washington, USA).
The trypanocidal effects of C1, C2, C3, D and Bnz were also tested on bloodstream trypomastigotes according to a standard WHO protocol slightly modified. Briefly, mouse blood containing trypomastigotes was treated with different concentrations of each compound (0.30 to 350 μM) or Bnz (0.38 to 38 μM). Plates were incubated for 24 h, and surviving parasites were counted in a Neubauer chamber as previously described. Results were expressed as the percentage of lysed parasites (%L) relative to the number of parasites in the control: %L = [1 − (CDt/(CDc)] × 100, where CDt and CDc represent the cellular density of treated and untreated parasites, respectively.
The results presented are representative of three to four separate experiments, performed in duplicates or triplicates. All data are expressed as means ± standard errors of the mean (SEM). To calculate the IC50 values, the %I or %L values were plotted against the log of drug concentration (μM) and fitted with a straight line determined by a linear regression (Sigma Plot 10 software). The significance of differences was evaluated using Student' t test, taking a P < 0.05 as significant. Flow cytometry data were analyzed employing the WinMDI 2.9 software.

Structure (SMILES) | Trypomastigotes SI | times more active than C2 and C3 on trypomastigotes (from IC50 values of Table 1) [times]
O=c1c2ccccc2c(C(=S)Nc2ccccc2)c2n1CCN2 [Compound C1, N-phenyl-5-oxo-1,2,3,5-tetrahydroimidazo[1,2-b]isoquinolin-10-carbothioamide] | >2.9 | 10
O=C(Cn1ccnc1[N+](=O)[O-])NCc1ccccc1 [Bnz, Benznidazole, reference compound] | 2.7 | –
Cc1ccc(NC(=S)c2c3n(c(=O)c4ccccc24)CCN3)cc1 [Compound C3] | >0.4 | –
O=c1c2ccccc2c(C(=S)Nc2ccc(Cl)cc2)c2n1CCN2 [Compound C2, N-(4-chlorophenyl)-5-oxo-1,2,3,5-tetrahydroimidazo[1,2-b]isoquinolin-10-carbothioamide] | >0.3 | –
